The text below walks through data of patent EP2565276A1.

The assay deals with YopH phosphatase. The note with it: emission at 465 nm over time; YopH lacks the allosteric site found in PTP1b.

In the case of `CCc1oc2cc(S(=O)(=O)Nc3ccc(S(=O)(=O)Nc4nccs4)cc3)ccc2c1C(=O)c1cc(Br)c(O)c(Br)c1`, the “dissociation from acrylodan-labeled PTP1b on addition of YopH phosphatase” value is on record as “did not dissociate”.
